Measurements reported in PubChem BioAssay AID1224833 (University of Georgia, 2016).

Screen: 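Host factors restraining rotavirus as candidate antiviral genes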 (primary screen)
System: monkey MA104 kidney cells
Reagent: siRNA pool against human genes, 50 nM
Time to read-out: 48 h knock-down before infection; read 24 h after infection
Treatment: infection with rotavirus strain RV3 two days after transfection; infectious dose for this stage not given
Measured: 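z-score of rotavirus antigen signal per well, from a fluorescent immunoassay, relative to non-targeting control wells on the same plate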
Reading the numbers: z-score vs non-targeting control: higher = more rotavirus replication than with non-targeting control
Call rule: In these data the active calls have z-score vs non-targeting control at about -1 or lower, or at about 1 or higher
Meaning of the calls: active = z-score beyond 1 either way; inactive = z-score within 1 of zero
The deposit covers about 12,000 reagents; this is a random part of them. Of all reagents, about 5,600 (46%) are marked active. 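Active calls cover z-scores past 1 in both directions, so they include lowered as well as raised rotavirus replication.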 No sequences are given here.

C2orf68 (chromosome 2 open reading frame 68) | z-score vs non-targeting control: -2.12; activity call: active
GM2A (ganglioside GM2 activator) | z-score vs non-targeting control: -0.63; activity call: inactive
RSPH3 (radial spoke head 3) | z-score vs non-targeting control: -2.49; activity call: active
XPNPEP2 (X-prolyl aminopeptidase 2) | z-score vs non-targeting control: 1.84; activity call: active
RB1CC1 (RB1 inducible coiled-coil 1) | z-score vs non-targeting control: 0.0356; activity call: inactive
TNFRSF11A (TNF receptor superfamily member 11a) | z-score vs non-targeting control: -1.21; activity call: active
AP1B1 (adaptor related protein complex 1 subunit beta 1) | z-score vs non-targeting control: -0.652; activity call: inactive
SLC19A4P | z-score vs non-targeting control: -1.61; activity call: active
MOB1A (MOB kinase activator 1A) | z-score vs non-targeting control: -1.13; activity call: active
MANF (mesencephalic astrocyte derived neurotrophic factor) | z-score vs non-targeting control: 0.407; activity call: inactive
WWC2 (WW and C2 domain containing 2) | z-score vs non-targeting control: 0.727; activity call: inactive
CEACAM21 (CEA cell adhesion molecule 21) | z-score vs non-targeting control: 0.0904; activity call: inactive
TTC19 (tetratricopeptide repeat domain 19) | z-score vs non-targeting control: -1.26; activity call: active
LDHD (lactate dehydrogenase D) | z-score vs non-targeting control: 0.676; activity call: inactive
MYRF (myelin regulatory factor) | z-score vs non-targeting control: 0.169; activity call: inactive

Continued, starting with the last 3 of the part before.
TTC19 (tetratricopeptide repeat domain 19) | z-score vs non-targeting control: -1.26; activity call: active
LDHD (lactate dehydrogenase D) | z-score vs non-targeting control: 0.676; activity call: inactive
MYRF (myelin regulatory factor) | z-score vs non-targeting control: 0.169; activity call: inactive
CTR9 (CTR9 component of Paf1/RNA polymerase II complex) | z-score vs non-targeting control: -0.0595; activity call: inactive
PTDSS1 (phosphatidylserine synthase 1) | z-score vs non-targeting control: 1.76; activity call: active
COLEC11 (collectin subfamily member 11) | z-score vs non-targeting control: -0.156; activity call: inactive
MAGEB3 (MAGE family member B3) | z-score vs non-targeting control: -0.901; activity call: inactive
MUS81 (MUS81 structure-specific endonuclease subunit) | z-score vs non-targeting control: -3.31; activity call: active
CFAP69 (cilia and flagella associated protein 69) | z-score vs non-targeting control: -0.523; activity call: inactive
TMEM164 (transmembrane protein 164) | z-score vs non-targeting control: -0.688; activity call: inactive
RAB28 (RAB28, member RAS oncogene family) | z-score vs non-targeting control: 1.35; activity call: active
ITGA4 (integrin subunit alpha 4) | z-score vs non-targeting control: -1.37; activity call: active
ANXA5 (annexin A5) | z-score vs non-targeting control: 1.24; activity call: active
BRI3BP (BRI3 binding protein) | z-score vs non-targeting control: -1.57; activity call: active
FBF1 (Fas binding factor 1) | z-score vs non-targeting control: -2.38; activity call: active
HES7 (hes family bHLH transcription factor 7) | z-score vs non-targeting control: -1.12; activity call: active
SPOUT1 (SPOUT domain containing methyltransferase 1) | z-score vs non-targeting control: -1.2; activity call: active
CCL19 (C-C motif chemokine ligand 19) | z-score vs non-targeting control: 1.11; activity call: active
TMEM26 (transmembrane protein 26) | z-score vs non-targeting control: -0.0856; activity call: inactive
ITIH1 (inter-alpha-trypsin inhibitor heavy chain 1) | z-score vs non-targeting control: -0.53; activity call: inactive
CNTFR (ciliary neurotrophic factor receptor) | z-score vs non-targeting control: -2.13; activity call: active
ELF4 (E74 like ETS transcription factor 4) | z-score vs non-targeting control: -0.625; activity call: inactive
SYNE2 (spectrin repeat containing nuclear envelope protein 2) | z-score vs non-targeting control: -0.675; activity call: inactive
PICK1 (protein interacting with PRKCA 1) | z-score vs non-targeting control: -0.979; activity call: inactive
SYNGR2 (synaptogyrin 2) | z-score vs non-targeting control: -1.43; activity call: active
SCP2D1 (SCP2 sterol binding domain containing 1) | z-score vs non-targeting control: -1.54; activity call: active
HMGCL (3-hydroxy-3-methylglutaryl-CoA lyase) | z-score vs non-targeting control: -1.8; activity call: active
TMEM8B (transmembrane protein 8B) | z-score vs non-targeting control: 0.463; activity call: inactive
TMEM132B (transmembrane protein 132B) | z-score vs non-targeting control: -1.11; activity call: active
MRPL2 (mitochondrial ribosomal protein L2) | z-score vs non-targeting control: -1.78; activity call: active
FOXD4L6 (forkhead box D4 like 6) | z-score vs non-targeting control: 1.92; activity call: active
OR8A1 (olfactory receptor family 8 subfamily A member 1) | z-score vs non-targeting control: -1.68; activity call: active
MCM7 (minichromosome maintenance complex component 7) | z-score vs non-targeting control: -2.08; activity call: active
SLC25A34 | z-score vs non-targeting control: -1.43; activity call: active
SYMPK (symplekin scaffold protein) | z-score vs non-targeting control: 0.905; activity call: inactive
